Pooled drug test results. Numbers come from NIAID ChemDB, via PubChem.

MIC bound comes from a single tested concentration. ICn is the concentration giving n% inhibition. Blank or dashed fields: not listed here. Percent inhibition refers to the dose given; in toxicity tests it is the harm to the cells. Conditions beyond the fields shown may differ between rows.

smiles,target,species,tested at,read by,measure,kind,strain,result
CCN(CC)CC1CCCCN1CC(=O)N1c2ccccc2NC(=O)CC1C,,Mycobacterium tuberculosis,,BACTEC,MIC bound,culture,H37Rv,>12.5 µg/mL
O=C(O)CCCCCCC(=O)O,,Mycobacterium tuberculosis,,,MIC,culture,H37Rv,>100 µg/mL
Cc1cc(C)cc(-c2cncc(N3CCN(c4ccccc4)CC3)n2)c1,UL97 kinase,Cytomegalovirus,,,IC50,target,,<100 µM
CC1=NN(C(=O)c2cccnc2)C(=O)C1N=Nc1ccc(S(=O)(=O)Nc2ccccn2)cc1,,Mycobacterium tuberculosis,,BACTEC,MIC,culture,H37Rv,≥12.8 µg/mL
CS(N)(=O)=O,,Mycobacterium tuberculosis,,,MIC,culture,H37Rv,>100 µg/mL
FC(F)(F)c1ccc(-c2cncc(N3CCN(c4ccccc4)CC3)n2)cc1,UL97 kinase,Cytomegalovirus,,,IC50,target,,<10 µM
Cl.Nc1ccc(N2CCCCC2)cc1,,Mycobacterium tuberculosis,,,MIC,culture,H37Rv,25 µg/mL
CN(C)c1ccc(-c2cncc(N3CCN(c4cccc(Cl)c4)CC3)n2)cc1,UL97 kinase,Cytomegalovirus,10 µM,,inhibition,target,,>15%
O=C1C(=Nc2ccc(Cl)nc2)CC(c2ccccc2)N1c1ccc(Cl)nc1,,Mycobacterium tuberculosis,,BACTEC,MIC,culture,H37Rv,≥12.8 µg/mL
COc1ccc(-c2cncc(N3CCN(c4ccc(Cl)c(Cl)c4)CC3)n2)cc1OC,UL97 kinase,Cytomegalovirus,,,IC50,target,,<100 µM
Cc1cc2c(cc1Cl)nc1c(=O)[nH]c(=O)nc-1n2C[C@H](O)[C@H](O)[C@H](O)CO,,Mycobacterium tuberculosis,,BACTEC,MIC bound,culture,H37Rv,>6.25 µg/mL
Fc1ccc(N2CCCCC2)c(NC(=S)c2ccncc2)c1,Haspin,,10 µM,kinase activity,inhibition,host protein,,77%
Cc1cc(NC(=O)NC(=O)c2ccccc2NC(=O)C(C)N)ccc1Oc1ncc(Br)cn1.Cl,,Mycobacterium tuberculosis,,BACTEC,MIC bound,culture,H37Rv,>12.5 µg/mL
C/C=C/C(=O)NS(=O)(=O)c1cc(N)ccc1S(=O)(=O)c1ccc(N)cc1,,Mycobacterium tuberculosis,,,MIC,culture,H37Rv,>100 µg/mL
NNC(=O)c1ccc(C(=O)NN)o1,,Mycobacterium tuberculosis,,BACTEC,MIC,culture,H37Rv,≥12.5 µg/mL
O=C(O)c1ccccn1,,Mycobacterium tuberculosis,,,MIC,culture,H37Rv,>100 µg/mL
CC(=O)c1ccccc1-c1cncc(N2CCN(c3cccc(C(F)(F)F)c3)CC2)n1,UL97 kinase,Cytomegalovirus,,,IC50,target,,<100 µM
Cc1ccc(C(C)C)c(OS(=O)(=O)c2ccc(Br)cc2)c1,,Mycobacterium tuberculosis,,,MIC,culture,H37Rv,>100 µg/mL
O=C[C@@H](O)[C@@H](O)[C@H](O)[C@H](O)CO,,Mycobacterium tuberculosis,,resazurin,MIC bound,culture,H37Rv,>6.25 µg/mL
Cc1ccc(N2CCN(c3cncc(-c4ccc(C(F)(F)F)cc4)n3)CC2)c(C)c1,UL97 kinase,Cytomegalovirus,,,IC50,target,,<100 µM
Cc1[nH]c(C(=O)O)c(C)c1C(=O)O,,Mycobacterium tuberculosis,,,MIC,culture,H37Rv,>100 µg/mL

The last 3 rows once more:

smiles,target,species,tested at,read by,measure,kind,strain,result
O=C[C@@H](O)[C@@H](O)[C@H](O)[C@H](O)CO,,Mycobacterium tuberculosis,,resazurin,MIC bound,culture,H37Rv,>6.25 µg/mL
Cc1ccc(N2CCN(c3cncc(-c4ccc(C(F)(F)F)cc4)n3)CC2)c(C)c1,UL97 kinase,Cytomegalovirus,,,IC50,target,,<100 µM
Cc1[nH]c(C(=O)O)c(C)c1C(=O)O,,Mycobacterium tuberculosis,,,MIC,culture,H37Rv,>100 µg/mL